Pooled drug test results. Numbers come from NIAID ChemDB, via PubChem.

All rows: enzyme or target tests; species: Hepatitis C virus

ICn is the concentration giving n% inhibition. Two numbers with a dash give a range or band. Conditions beyond the fields shown may differ between rows. Blank or dashed fields: not listed here. Inhibition is in % at the dose shown (toxicity tests: loss of growth or viability).

structure | target | dose | endpoint | value
O=C1COc2ccc(-c3ccc4cc(-c5nc6cc(C(=O)O)ccc6n5C5CCCCC5)ccc4n3)cc2N1 | NS5B polymerase | 100 µM | inhibition | 101%
CCCCC(=O)N(C)c1cc(-c2ccccc2)sc1C(=O)O | NS3 ATPase |  | IC50 | <5 µM
COc1ccc(-c2ccc(OC)cc2-c2ccc3cc(-c4nc5cc(C(=O)O)ccc5n4C4CCCCC4)ccc3n2)cc1 | NS5B polymerase | 33 µM | inhibition | 99.33%
CCOC(=O)c1ccc(NC(=O)COc2cc3c(C(=O)NC)c(-c4ccc(F)cc4)oc3cc2N(C)S(C)(=O)=O)cc1 | Nonstructural protein 5B |  | IC50 | ≤0.5 µM
COc1ccc(C)c(Oc2ccc(-c3cnc4c(-c5nn[nH]n5)cnn4c3C3CCCCC3)cc2)c1 | RNA-dependent RNA polymerase |  | IC50 | 1–10 µM
CN(C)c1ccc(-c2nc3ccc(-c4nc5cc(C(=O)O)ccc5n4C4CCCCC4)cc3nc2-c2ccc(N(C)C)cc2)cc1 | NS5B polymerase | 33 µM | inhibition | 100%
N#Cc1cccc(C(=O)Nc2ccccc2-c2nc(C(=O)O)c(O)c(=O)[nH]2)c1 | HCV polymerase |  | IC50 | <100 µM
CNC(=O)c1c(-c2ccc(F)cc2)oc2cc(N(CCN3CCOCC3)S(C)(=O)=O)c(OC(C)C)cc12 | Nonstructural protein 5B |  | IC50 | ≤0.5 µM
Cc1ccccc1CNC(=O)Nc1ccccc1-c1nc(C(=O)O)c(O)c(=O)[nH]1 | HCV polymerase |  | IC50 | <100 µM
CC(C)CC(NC(=O)c1ccc2c(c1)nc(-c1ccc3nc(-c4ccccc4)cnc3c1)n2C1CCCCC1)C(=O)O | NS5B polymerase | 33 µM | inhibition | 93.18%
COc1cccc(COc2ccc(-c3cnc4c(-c5nn[nH]n5)cnn4c3C3CCCCC3)cc2)c1 | RNA-dependent RNA polymerase |  | IC50 | 1–10 µM
CNC(=O)c1c(-c2ccc(F)cc2)oc2cc(-c3c(C4CC4)noc3COC)c(OC)cc12 | Nonstructural protein 5B |  | IC50 | ≤0.5 µM
Cc1ccc(C(=O)N(C)c2cc(-c3ccc(N)cc3)sc2C(=O)O)cc1 | NS3 ATPase |  | IC50 | 5–20 µM
Cc1nc(N)sc1-c1ccc2cc(-c3nc4cc(C(=O)O)ccc4n3C3CCCCC3)ccc2n1 | NS5B polymerase | 33 µM | inhibition | 94.13%
Cc1ccccc1S(=O)(=O)Nc1cc(-c2cc3ccccc3s2)sc1C(=O)O | NS3 ATPase |  | IC50 | <5 µM
CCOC(=O)c1cc2nc(-c3ccc(Cl)cc3)cc(-c3cccc(OC)c3)n2n1 | RNA-dependent RNA polymerase |  | IC50 | >10 µM
O=C(NC(Cc1ccccc1)C(=O)O)c1ccc2c(c1)nc(-c1ccc3nc(-c4ccccc4)cnc3c1)n2C1CCCCC1 | NS5B polymerase | 100 µM | inhibition | 96.4%
c1ccc(CNc2ccc(-c3c(C4CCCCC4)cnc4c(-c5nn[nH]n5)cnn34)cc2)cc1 | RNA-dependent RNA polymerase |  | IC50 | 1–10 µM
O=C(O)c1nc(-c2ccccc2NS(=O)(=O)c2ccc(Cl)cc2)[nH]c(=O)c1O | HCV polymerase |  | IC50 | <100 µM
COc1ccc(-c2ccc(Cl)cc2)c(-c2ccc3cc(-c4nc5cccc(C(=O)O)c5n4C4CCCCC4)ccc3n2)c1 | NS5B polymerase | 33 µM | inhibition | 104%
Cc1ccc(C)c(S(=O)(=O)Nc2cc(-c3ccc(F)cc3)sc2C(=O)O)c1 | NS3 ATPase |  | IC50 | <5 µM
COc1cccc(-c2nc(C(=O)O)c(O)c(=O)[nH]2)c1 | HCV polymerase |  | IC50 | <100 µM
CCNc1cc2oc(-c3ccc(F)cc3)c(C(=O)NC)c2cc1OC(C)C | Nonstructural protein 5B |  | IC50 | ≤0.5 µM
O=C(O)c1sc(-c2ccccc2)cc1NS(=O)(=O)c1ccc(F)c(F)c1F | NS3 ATPase |  | IC50 | 5–20 µM
O=C(NCCc1c(Cl)cccc1Cl)Nc1ccsc1-c1nc(C(=O)O)c(O)c(=O)[nH]1 | HCV polymerase |  | IC50 | <25 µM
COc1cccc(Oc2cccc(-c3cnc4c(-c5nn[nH]n5)cnn4c3C3CCCCC3)c2)c1 | RNA-dependent RNA polymerase |  | IC50 | 1–10 µM
O=C(O)c1nc(-c2ccccc2NS(=O)(=O)c2c(Cl)sc(Cl)c2Br)[nH]c(=O)c1O | HCV polymerase |  | IC50 | <100 µM
COC(=O)c1sc(-c2ccc(C#N)cc2)cc1NS(=O)(=O)c1ccc(C)cc1C | NS3 ATPase |  | IC50 | <5 µM
O=C(NCc1ccccc1)Nc1ccccc1-c1nc(C(=O)O)c(O)c(=O)[nH]1 | HCV polymerase |  | IC50 | <100 µM
O=C(O)c1cnn2c(-c3ccccc3)cc(=O)[nH]c12 | RNA-dependent RNA polymerase |  | IC50 | >10 µM
Cc1ccc(-c2cc(N(C(=O)c3ccc(Cl)cc3Cl)C(C)C)c(C(=O)O)s2)s1 | NS3 ATPase |  | IC50 | <5 µM
O=C(O)c1cc2nc(-c3ccccc3OCc3ccccc3)cc(-c3ccc(Cl)cc3)n2n1 | RNA-dependent RNA polymerase |  | IC50 | 1–10 µM
O=C(O)c1ccc2c(c1)nc(-c1ccc3nc(C(=O)N(c4ccc(Cl)cc4)C4CCCCC4)ccc3c1)n2C1CCCCC1 | NS5B polymerase | 100 µM | inhibition | 95.68%

Repeating the final 3 entries:

structure,target,dose,endpoint,value
Cc1ccc(-c2cc(N(C(=O)c3ccc(Cl)cc3Cl)C(C)C)c(C(=O)O)s2)s1,NS3 ATPase,,IC50,<5 µM
O=C(O)c1cc2nc(-c3ccccc3OCc3ccccc3)cc(-c3ccc(Cl)cc3)n2n1,RNA-dependent RNA polymerase,,IC50,1–10 µM
O=C(O)c1ccc2c(c1)nc(-c1ccc3nc(C(=O)N(c4ccc(Cl)cc4)C4CCCCC4)ccc3c1)n2C1CCCCC1,NS5B polymerase,100 µM,inhibition,95.68%